PubChem BioAssay AID504761 – Drosophila RNAi Screening Center – 2011
The screen tested about 22,000 reagents; shown is a random part of those with a known target gene and a result. Over the whole deposit, 116 (0.52%) were called active. 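Calls depend on retest data that are not deposited; infection was ranked per plate without normalising between plates; the unit of the infection score is not given.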 Unmarked entries are inactive. A plus sign joins genes that one reagent is predicted to hit. Further read-outs or replicates are left out here. Not stated in the record: the amount of reagent, the time to read-out.

Screen: 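Genome-wide fly cell screen for genes dengue virus requires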 (primary screen)
System: D.Mel-2 cells from Drosophila
Reagents: long dsRNA against Drosophila genes
Challenge: infection with dengue virus type 2; dose and infection time not stated
Read-out: 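Cells stained for dengue envelope protein and imaged; percent of infected cells per well on duplicate plates, ranked by infection, with stained nuclei counted for cell number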
Scale: infection score: higher = more virus-infected cells
Hit rule: 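Low infection ranks in the two replicates (chance level up to 0.065) followed by a retest with a 1.5-fold or larger significant decrease, p below 0.05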
Calls: active = confirmed: knock-down lowers infection; inactive = not picked or not confirmed

Against CG6195 [DRSC15989], the values are infection score, replicate 1 = 10.4.
With knock-down of CG6195 [DRSC25477], the screen gave infection score, replicate 1 = 5.16.
Knock-down of Pstk + Tim9b [DRSC19504] came out at: infection score, replicate 1 = 5.03.
Against Pstk + Tim9b [DRSC20292], the entry reads infection score, replicate 1 = 2.29.
Knock-down of Pstk + Tim9b [DRSC28671] gave: infection score, replicate 1 = 1.74.

Sorted by “infection score, replicate 1” (highest first): 2 of the entries above.
Pstk + Tim9b [DRSC19504] | infection score, replicate 1: 5.03
Pstk + Tim9b [DRSC20292] | infection score, replicate 1: 2.29

Further reagents:
Debcl [DRSC04965] scored infection score, replicate 1 = 22.6.
Against Debcl [DRSC30010], the values are infection score, replicate 1 = 14.
For CG9004 [DRSC08617] the deposit lists infection score, replicate 1 = 4.28.
CG13965 [DRSC02307] gave infection score, replicate 1 = 15.1.
Silencing of wbl [DRSC07718] came out at: infection score, replicate 1 = 0.72.
wbl [DRSC26561] gave infection score, replicate 1 = 6.98.
With knock-down of Cpes [DRSC04475] the results were infection score, replicate 1 = 12.4.
Against Cpes [DRSC27503], the values are infection score, replicate 1 = 9.54.
Against slx1 [DRSC12290], the values are infection score, replicate 1 = 1.55.
